# Test system: O=C(O)c1ccccc1NCC(=O)[C@H](O)[C@H](O)COP(=O)(O)O
# Assay: purified protein
# Settings: pH 7.5; 25.0 °C
substance,measurement,value
(Mycobacterium tuberculosis H37Rv),Km,6.9 ± 1.4 µM
